The target in the test is MoCrn1 (protein of the pull-down and MST assays) (Magnaporthe oryzae). The experiment in a line: MST. The settings on record: natural protein.

In turn, MoRgs3 (protein of the MST assay) returned a Kd of 7.9 µM.

The Kd is the free concentration of one partner at which half of the binding sites on the other are occupied at equilibrium, for simple one-to-one binding. Low readings indicate a tighter complex, high ones a looser complex.

(Values after PMC11323498.)
